Data as given in PubChem BioAssay AID504761 (Drosophila RNAi Screening Center, 2011)
The screen tested about 22,000 reagents; this is an unselected part of those with a known target gene and a result. In the full data, 116 (0.52%) are marked active. 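Calls depend on retest data that are not deposited; infection was ranked per plate without normalising between plates; the unit of the infection score is not given.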 The raw values are shown without normalisation. Not all columns of the deposit are shown. Not given: the amount of reagent, the time to read-out.

- Screen: 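Genome-wide fly cell screen for genes dengue virus requires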 (primary screen)
- System: D.Mel-2 cells from Drosophila
- Reagent: long dsRNA against Drosophila genes
- Challenge: infection with dengue virus type 2; dose and infection time not stated
- Measured: 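Cells stained for dengue envelope protein and imaged; percent of infected cells per well on duplicate plates, ranked by infection, with stained nuclei counted for cell number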
- Scale: infection score: higher = more virus-infected cells; cell count: higher = more cells in the well
- Call rule: 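Low infection ranks in the two replicates (chance level up to 0.065) followed by a retest with a 1.5-fold or larger significant decrease, p below 0.05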
- Calls: active = confirmed: knock-down lowers infection; inactive = not picked or not confirmed

infection score, replicate 1 | infection score, replicate 2 | cell count, replicate 1 | call | gene | DRSC id
3.07 | 8.14 | 6910 | inactive | lectin-46Cb | DRSC06611
9.34 | 3.19 | 6404 | inactive | lectin-46Cb | DRSC25309
1.11 | 3.5 | 6036 | inactive | CG3191 | DRSC18530
– | 9.12 | 326 | inactive | CG3191 | DRSC29390
5.02 | 2.38 | 6658 | inactive | Edem2 (ER degradation enhancer, mannosidase alpha-like 2) | DRSC02877
2.25 | 6.08 | 6488 | inactive | Edem2 (ER degradation enhancer, mannosidase alpha-like 2) | DRSC26898
4.1 | 13.1 | 6268 | inactive | BckdhA (Branched chain keto acid dehydrogenase E1 subunit alpha) | DRSC16395
0.9 | 1.97 | 6088 | inactive | CG34124 | DRSC00849
2.8 | 5.74 | 6687 | inactive | spz3 (spatzle 3) | DRSC02391
5.18 | 11 | 6137 | inactive | spz3 (spatzle 3) | DRSC03008
2.68 | 2.46 | 6520 | inactive | CG30105 | DRSC05668
– | 7.82 | 311 | inactive | CG30105 | DRSC29034

Next part; the last 3 above are carried over.
infection score, replicate 1 | infection score, replicate 2 | cell count, replicate 1 | call | gene | DRSC id
5.18 | 11 | 6137 | inactive | spz3 (spatzle 3) | DRSC03008
2.68 | 2.46 | 6520 | inactive | CG30105 | DRSC05668
– | 7.82 | 311 | inactive | CG30105 | DRSC29034
10.7 | 13.4 | 3898 | inactive | Ir94g (Ionotropic receptor 94g) | DRSC15231
4.43 | 8.15 | 6339 | inactive | Ir94g (Ionotropic receptor 94g) | DRSC27794
2.13 | 0.38 | 6628 | inactive | CG31176 | DRSC15038
6.08 | 4.06 | 6312 | inactive | CG31176 | DRSC16021
1.72 | 2.63 | 6460 | inactive | CG14069 | DRSC02372
0.79 | 14.9 | 6359 | inactive | RpL36A (Ribosomal protein L36A) | DRSC03055
10.8 | 11.5 | 1612 | inactive | RpL36A (Ribosomal protein L36A) | DRSC27375
4.81 | 16.1 | 5946 | inactive | Nha1 (Na[+]/H[+] hydrogen antiporter 1) | DRSC02109
0.48 | 4.42 | 6941 | inactive | CG14354 | DRSC14817
15.4 | 10.5 | 3972 | inactive | Nipped-A | DRSC04883
51.9 | 32.8 | 2595 | inactive | Nipped-A | DRSC04884
5.96 | 7.94 | 5166 | inactive | Nipped-A | DRSC07738
2.46 | 13.4 | 3776 | inactive | Nipped-A | DRSC22386
